Primary screen of a compound library

Each number is a percent effect as filed.
The controls that fix the scale are not given in the record; negative values are as filed.
Many other results are left out here, so strong results are more common than in the screen.

Mtb glucose medium: 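Phenotypic screen: M. tuberculosis growth, glucose 7H9 medium, 3 days; the read-out is not stated. Compounds at 500 µM. The record gives no direction; compounds that gave an IC50 in retests scored well above the rest, so higher reads as more growth inhibition. Size under these conditions: about 18,000 compounds, about 1,400 of them at 50% or above in at least one test.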
Mtb cholesterol medium: 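Whole-cell growth test on Mycobacterium tuberculosis, read after 4 days in a medium based on cholesterol and the lipid DPPC; the read-out is not stated. Compounds at 500 µM. The record gives no direction; compounds that gave an IC50 in retests scored well above the rest, so higher reads as more growth inhibition. Of about 18,000 compounds tested this way, about 900 (5%) reached 50% or more in at least one test.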

Compound: CC(C)CSCCSc1nnc(N)[nH]1
Mtb glucose medium: 51.6
Mtb cholesterol medium: 44.98

Compound: CC(=O)Cn1cnc2sc(C)c(C)c2c1=O
Mtb cholesterol medium: 6.193

Compound: CN(C)C(=O)c1c[nH]nc1C1CCCNC1 (stereo not shown)
Mtb cholesterol medium: -5.219

Compound: Cc1cc(N2CCNC2=O)ccc1NS(=O)(=O)C1CC1
Mtb glucose medium: 14.69

Compound: COCCn1c(SCC(=O)NC(N)=O)nc(C)c1C
Mtb cholesterol medium: 4.549

Compound: COc1cn(-c2ccccc2)nc1C(=O)NCC(C)C
Mtb glucose medium: 67.38
Mtb cholesterol medium: 69.07

Compound: COc1cc(CN)ccc1O
Mtb cholesterol medium: 19.58

Compound: Cc1cnn(CCNCc2cccc(C(N)=O)c2)c1
Mtb glucose medium: 25.67

Compound: CN(CCC(N)=O)Cc1ccc(Cl)s1
Mtb glucose medium: 34.66
Mtb cholesterol medium: 38.99

Compound: NC(=O)CCCNC(=O)C1(c2ccccc2)CCC1
Mtb cholesterol medium: 8.269

Compound: COC(=O)CN1C(=O)CCc2ccccc21
Mtb glucose medium: 11.83

Compound: O=C(Nc1ccc(Br)cn1)C1CCCNC1 (stereo not shown)
Mtb cholesterol medium: 1.307

Compound: CC(NC(=O)C(C)(C)C)c1ccncc1 (stereo not shown)
Mtb cholesterol medium: 13.33

Compound: O=C(Nc1nccs1)C1CCCN(C(=O)NC2CC2)C1 (stereo not shown)
Mtb glucose medium: 17.07

Compound: CC[C@@]1(O)CCN(C(=O)CCc2cc(Cl)no2)C[C@H]1O
Mtb glucose medium: 41.53
Mtb cholesterol medium: 35.85

Compound: COCC1(S(=O)(=O)NCc2ccnc(OC)c2)CC1
Mtb glucose medium: 18.33

Compound: O=C(Nc1ccccc1I)C1COCCO1 (stereo not shown)
Mtb glucose medium: 20.35

Compound: Cc1cc(NC(=O)CN(C)C)ccc1OCCO
Mtb glucose medium: 19.64

Compound: O=C1CNCCN1c1cccc2cnccc12
Mtb cholesterol medium: -8.719

Compound: CCS(=O)(=O)N(C)CCCNc1ccc(C)c(C#N)n1
Mtb glucose medium: 71.49
Mtb cholesterol medium: 64.2

Compound: O=C(Cn1cnnn1)Nc1cccc(-n2cccc2)c1
Mtb glucose medium: -11.4
Mtb cholesterol medium: 7.999

Compound: CC(=O)N(C)C1CCN(CC(=O)N2CCCC2)CC1
Mtb cholesterol medium: -8.294

Compound: CC(C)(C)OCCOc1ccc(OCCO)cc1
Mtb glucose medium: 60.5
Mtb cholesterol medium: 63.67

Compound: CC1CCN(CCC(=O)Nc2sccc2C(N)=O)CC1
Mtb glucose medium: 46.72
Mtb cholesterol medium: 33.21

Compound: CCN(CC)CC(=O)Nc1c2c(nn1C)CCC2
Mtb glucose medium: -9.826

Compound: COCCN1CCN(Cc2cc(C(C)(C)C)[nH]n2)CC1
Mtb glucose medium: 12.79

The values are deposited in ChEMBL (CHEMBL3988442, “University of Dundee, Small-Polar-MMV Screening Library” (2021)).